Results of unrelated studies side by side (data: NIAID ChemDB).

Common to all: target-level tests; species: HIV-1; target: Reverse transcriptase; read by: nucleotide incorporation / radiometric; read-out: IC50

ICn is the concentration giving n% inhibition. Blank or dashed fields: not listed here. a–b is a range or a potency band. Lines come from different laboratories, so protocols vary.

SMILES,strain,mutations,result
CCN1c2ncc(CCOc3ccc(C(=O)O)c4ccccc34)cc2C(=O)N(C)c2ccc(Cl)nc21,WT,,<0.1 µM
Cc1cccc(Cl)c1-n1nnnc1SCC(=O)Nc1ccccc1Cl,,,<2 µM
CCC1(c2ccc(CNc3ccccc3)cc2)Oc2ccccc2-n2cccc2C1=O,,RT-Y181I,>10 µM
Cc1cn([C@H]2CC[C@@H](COP(=O)(O)OP(=O)(O)OP(=O)(O)O)O2)c(=O)[nH]c1=O,,RT-I132M,0.06 µM
CN(C)c1nc(Cc2c(F)cccc2F)cc(=O)[nH]1,IIIB,RT-Y181I,3 µM
NC(=O)OCc1cn(Cc2ccncc2)c(Sc2cc(Cl)cc(Cl)c2)c1C1CC1,,,0.55 µM
C=C(CC(=O)O)c1ccc(OCCc2cnc3c(c2)C(=O)N(C)c2cccnc2N3CC)c2ccccc12,,RT-K103N Y181C,0.1–1 µM
CCC1(c2ccc(COc3cccc(Cl)c3)cc2)Oc2ccccc2-n2cccc2C1=O,WT,,0.1 µM
Cc1c(Cc2c(F)cccc2F)nc(N(C)C)[nH]c1=O,IIIB,RT-L100I,10 µM
CCN1c2ncc(CCOc3ccc(C(=O)O)c4ccccc34)cc2C(=O)N(C)c2cccnc21,WT,,<0.1 µM
CCN1c2ncc(COc3ccnc(C)c3)cc2C(=O)N(C)c2ccc(Cl)nc21,WT,,<1 µM
OCc1cn(Cc2ccncc2)c(Sc2cc(Cl)cc(Cl)c2)c1C1CC1,,,0.43 µM
O=C(CSc1nnnn1-c1cccc2ccccc12)Nc1ccc(Cl)cc1Cl,,,<2 µM
Cc1c(C(C)c2c(F)cccc2F)nc(N2CCOCC2)[nH]c1=O,IIIB,RT-V106A,>20 µM
Cc1c(Cc2c(F)cccc2F)nc(SCc2ccc([N+](=O)[O-])cc2)[nH]c1=O,,RT-K103N,>400 µM
NC(=O)OCc1cn(Cc2ccncc2)c(Sc2cc(Cl)cc(Cl)c2)c1C1CCC1,,,0.04 µM
CCN1c2ncc(CNc3ccccc3)cc2C(=O)N(C)c2ccc(Cl)nc21,,RT-Y181C,<1 µM
Nc1nc2c(ncn2[C@H]2CC[C@@H](COP(=O)(O)OP(=O)(O)OP(=O)(O)O)O2)c(=O)[nH]1,,RT-V106A P225H,0.097 µM
CCN1c2ncc(CCc3cnc4ccccc4c3)cc2C(=O)N(C)c2ccc(F)nc21,,RT-Y181C,<1 µM
CCN1c2ncc(CCOc3ccc(CC(N)=O)c4ccccc34)cc2C(=O)N(C)c2cccnc21,,RT-K103N Y181C,<0.1 µM
CCC1(c2cccc(I)c2)Oc2ccccc2-n2cccc2C1=O,,RT-Y188L,>10 µM
Cc1cc(C)c(-n2nnnc2SCC(=O)Nc2ccc(S(=O)(=O)Nc3nc(C)c(C)o3)cc2)c(C)c1,,,<2 µM
CCN1c2ncc(C(C)O)cc2C(=O)N(C)c2ccc(Cl)nc21,,RT-Y181C,<1 µM
COc1ccc(CSc2nc(Cc3c(Cl)cccc3Cl)c(C)c(=O)[nH]2)c(OC)c1,,RT-K103N,>400 µM
CCC1(c2cccc(N)c2)Oc2ccccc2-n2cccc2C1=O,WT,,0.3 µM
CCN1c2ncc(CCOc3ccc4cc(C(=O)O)ccc4c3)cc2C(=O)N(C)c2cccnc21,WT,,<0.1 µM
CC(=O)Nc1ccc(Cl)c(NC(=O)CSc2nnnn2-c2c(C)cc(C)cc2C)c1,,,<2 µM
CCN1c2ncc(COc3ccncc3)cc2C(=O)N(C)c2ccc(Cl)nc21,WT,,<1 µM
Cc1cc(C)c(-n2nnnc2SCC(=O)Nc2ccc(Cl)cc2[N+](=O)[O-])c(C)c1,,,<2 µM
CCC1(c2cccc(Cl)c2)Oc2ccccc2-n2cccc2C1=O,,RT-V106A,0.2 µM
CCN1c2ncc(CCOc3ccc(C(=O)O)c4c3CCCC4)cc2C(=O)N(C)c2cccnc21,,RT-V106A,>1 µM
CCC1(c2ccc(Cn3ccsc3=N)cc2)Oc2ccccc2-n2cccc2C1=O,,RT-K103N,5 µM
Cc1cc(C)cc(S(=O)(=O)c2c(C(=O)NNCCO)[nH]c3ccc(Cl)cc23)c1,,RT-K103N,1.04 µM
Nc1ccn([C@H]2CC[C@@H](COP(=O)(O)OP(=O)(O)OP(=O)(O)O)O2)c(=O)n1,,RT-P225H,3.1 µM
Cc1c(Cc2c(Cl)cccc2Cl)nc(S(=O)(=O)Cc2ccc([N+](=O)[O-])cc2)[nH]c1=O,,RT-K103N,>400 µM
OCc1cn(Cc2ccncc2)c(Sc2cc(Cl)cc(Cl)c2)c1C1CCC1,,,0.08 µM
Cc1cn([C@H]2C=C[C@@H](COP(=O)(O)OP(=O)(O)OP(=O)(O)O)O2)c(=O)[nH]c1=O,,RT-V106A P225H,0.07 µM
NC(=O)OCc1cn(Cc2ccncc2)c(Sc2cc(Cl)cc(Cl)c2)c1C1CCCCC1,,,0.34 µM
CCN1c2ncc(CCOc3ccc(/C(C)=C/C(=O)O)c4ccccc34)cc2C(=O)N(C)c2cccnc21,WT,,<0.1 µM
CCN1c2ncc(CCOc3ccncc3)cc2C(=O)N(C)c2ccc(Cl)nc21,WT,,<1 µM
Cc1c(Cc2c(F)cccc2F)nc(SCc2ccc(C#N)cc2)[nH]c1=O,,RT-K103N,>400 µM
CCN1c2ncc(COc3ccncc3)cc2C(=O)N(C)c2ccc(F)nc21,,RT-Y181C,<1 µM
CCN1c2ncc(CCOc3ccc(C(=O)O)c4ccccc34)cc2C(=O)Nc2c(C)cc(Cl)nc21,,RT-V106A,0.1–1 µM
Cc1c(Cc2c(Cl)cccc2Cl)nc(S(=O)(=O)Cc2ccc(Br)cc2)[nH]c1=O,,RT-181I,>400 µM

The first 6 rows once more:

| SMILES | strain | mutations | result |
|---|---|---|---|
| CCN1c2ncc(CCOc3ccc(C(=O)O)c4ccccc34)cc2C(=O)N(C)c2ccc(Cl)nc21 | WT |  | <0.1 µM |
| Cc1cccc(Cl)c1-n1nnnc1SCC(=O)Nc1ccccc1Cl |  |  | <2 µM |
| CCC1(c2ccc(CNc3ccccc3)cc2)Oc2ccccc2-n2cccc2C1=O |  | RT-Y181I | >10 µM |
| Cc1cn([C@H]2CC[C@@H](COP(=O)(O)OP(=O)(O)OP(=O)(O)O)O2)c(=O)[nH]c1=O |  | RT-I132M | 0.06 µM |
| CN(C)c1nc(Cc2c(F)cccc2F)cc(=O)[nH]1 | IIIB | RT-Y181I | 3 µM |
| NC(=O)OCc1cn(Cc2ccncc2)c(Sc2cc(Cl)cc(Cl)c2)c1C1CC1 |  |  | 0.55 µM |